# Laboratory results: US4886663A (priority 1983, dated 1989)
# Tested on: M-ST antigen
# Assay: rabbit antiserum titer against M-ST after immunization with non-conjugated ST (ELISA)
# Settings: same protocol; believed, not tested
substance,measurement,value
AsnThrPheTyrCysCysGluLeuCysCysTyrProAlaCysAlaGlyCysAsn,induction of anti-ST antibodies when non-conjugated to a carrier,would induce substantially no anti-ST antibodies
